system: HIV-1NL4-3 pseudovirus; type: cell-based; settings: HIV-1NL4-3(D36G) pseudovirus entry, TZM-bl cells; triplicate, repeated three times, mean ± SD; SD; read-out: Inhibition (IC50, nM) NL4-3 entry

SMILES	IC50
CC[C@H](C)[C@H](NC(=O)[C@H](CC(C)C)NC(=O)[C@H](CCC(=O)O)NC(=O)[C@H](CCC(=O)O)NC(=O)[C@@H](NC(=O)[C@H](CCCCN)NC(=O)[C@H](CCCCN)NC(=O)[C@@H](NC(=O)[C@H](Cc1ccc(O)cc1)NC(=O)[C@H](CCC(=O)O)NC(=O)[C@H](CCC(=O)O)NC(=O)[C@@H](NC(=O)[C@H](CCCCN)NC(=O)[C@H](CCCCN)NC(=O)[C@H](CC(=O)O)NC(=O)[C@H](Cc1c[nH]c2ccccc12)NC(=O)[C@H](CCC(=O)O)NC(=O)[C@H](CCC(=O)O)NC(=O)[C@H](Cc1c[nH]c2ccccc12)NC(=O)[C@@H](NC(=O)[C@H](CCSC)NC(C)=O)[C@@H](C)O)[C@@H](C)CC)[C@@H](C)O)[C@@H](C)CC)C(=O)N[C@@H](CCCCN)C(=O)N[C@@H](CCCCN)C(=O)N[C@@H](CO)C(=O)N[C@@H](CCC(=O)O)C(=O)N[C@@H](CCC(=O)O)C(=O)N[C@@H](CCC(N)=O)C(=O)N[C@@H](CCC(N)=O)C(=O)N[C@@H](CCCCN)C(=O)N[C@@H](CCCCN)C(=O)N[C@@H](CC(N)=O)C(N)=O [MT-SC29EK]	0.9 ± 0.2 nM
CC[C@H](C)[C@H](NC(=O)[C@H](CC(C)C)NC(=O)[C@H](CCC(=O)O)NC(=O)[C@H](CCC(=O)O)NC(=O)[C@@H](NC(=O)[C@H](CCCCN)NC(=O)[C@H](CCCCN)NC(=O)[C@@H](NC(=O)[C@H](Cc1ccc(O)cc1)NC(=O)[C@H](CCC(=O)O)NC(=O)[C@H](CCC(=O)O)NC(=O)[C@@H](NC(=O)[C@H](CCCCN)NC(=O)[C@H](CCCCN)NC(=O)[C@H](CC(=O)O)NC(=O)[C@H](Cc1c[nH]c2ccccc12)NC(=O)[C@H](CCC(=O)O)NC(=O)[C@H](CCC(=O)O)NC(=O)[C@H](Cc1c[nH]c2ccccc12)NC(=O)[C@@H](NC(=O)[C@H](CCSC)NC(C)=O)[C@@H](C)O)[C@@H](C)CC)[C@@H](C)O)[C@@H](C)CC)C(=O)N[C@@H](CCCCN)C(=O)N[C@@H](CCCCN)C(=O)N[C@@H](CO)C(=O)N[C@@H](CCC(=O)O)C(=O)N[C@@H](CCC(=O)O)C(=O)N[C@@H](CCC(N)=O)C(=O)N[C@@H](CCC(N)=O)C(=O)N[C@@H](CCCCN)C(=O)N[C@@H](CCCCN)C(=O)N[C@@H](CC(N)=O)C(=O)N[C@@H](CCC(=O)O)C(N)=O [MT-SC30EK]	0.8 ± 0.1 nM
CC[C@H](C)[C@H](NC(=O)[C@H](CC(C)C)NC(=O)[C@H](CCC(=O)O)NC(=O)[C@H](CCC(=O)O)NC(=O)[C@@H](NC(=O)[C@H](CCCCN)NC(=O)[C@H](CCCCN)NC(=O)[C@@H](NC(=O)[C@H](Cc1ccc(O)cc1)NC(=O)[C@H](CCC(=O)O)NC(=O)[C@H](CCC(=O)O)NC(=O)[C@@H](NC(=O)[C@H](CCCCN)NC(=O)[C@H](CCCCN)NC(=O)[C@H](CC(=O)O)NC(=O)[C@H](Cc1c[nH]c2ccccc12)NC(=O)[C@H](CCC(=O)O)NC(=O)[C@H](CCC(=O)O)NC(=O)[C@H](Cc1c[nH]c2ccccc12)NC(=O)[C@@H](NC(=O)[C@H](CCSC)NC(C)=O)[C@@H](C)O)[C@@H](C)CC)[C@@H](C)O)[C@@H](C)CC)C(=O)N[C@@H](CCCCN)C(=O)N[C@@H](CCCCN)C(=O)N[C@@H](CO)C(=O)N[C@@H](CCC(=O)O)C(=O)N[C@@H](CCC(=O)O)C(=O)N[C@@H](CCC(N)=O)C(=O)N[C@@H](CCC(N)=O)C(=O)N[C@@H](CCCCN)C(=O)N[C@@H](CCCCN)C(=O)N[C@@H](CC(N)=O)C(=O)N[C@@H](CCC(=O)O)C(=O)N[C@@H](CCCCN)C(N)=O [MT-SC31EK]	1.3 ± 0.1 nM
CC[C@H](C)[C@H](NC(=O)[C@H](CC(C)C)NC(=O)[C@H](CCC(=O)O)NC(=O)[C@H](CCC(=O)O)NC(=O)[C@@H](NC(=O)[C@H](CCCCN)NC(=O)[C@H](CCCCN)NC(=O)[C@@H](NC(=O)[C@H](Cc1ccc(O)cc1)NC(=O)[C@H](CCC(=O)O)NC(=O)[C@H](CCC(=O)O)NC(=O)[C@@H](NC(=O)[C@H](CCCCN)NC(=O)[C@H](CCCCN)NC(=O)[C@H](CC(=O)O)NC(=O)[C@H](Cc1c[nH]c2ccccc12)NC(=O)[C@H](CCC(=O)O)NC(=O)[C@H](CCC(=O)O)NC(=O)[C@H](Cc1c[nH]c2ccccc12)NC(=O)[C@@H](NC(=O)[C@H](CCSC)NC(C)=O)[C@@H](C)O)[C@@H](C)CC)[C@@H](C)O)[C@@H](C)CC)C(=O)N[C@@H](CCCCN)C(=O)N[C@@H](CCCCN)C(=O)N[C@@H](CO)C(=O)N[C@@H](CCC(=O)O)C(=O)N[C@@H](CCC(=O)O)C(=O)N[C@@H](CCC(N)=O)C(=O)N[C@@H](CCC(N)=O)C(=O)N[C@@H](CCCCN)C(=O)N[C@@H](CCCCN)C(=O)N[C@@H](CC(N)=O)C(=O)N[C@@H](CCC(=O)O)C(=O)N[C@@H](CCCCN)C(=O)N[C@@H](CCC(=O)O)C(N)=O [MT-SC32EK]	1.3 ± 0.1 nM
CC[C@H](C)[C@H](NC(=O)[C@H](CC(C)C)NC(=O)[C@H](CCC(=O)O)NC(=O)[C@H](CCC(=O)O)NC(=O)[C@@H](NC(=O)[C@H](CCCCN)NC(=O)[C@H](CCCCN)NC(=O)[C@@H](NC(=O)[C@H](Cc1ccc(O)cc1)NC(=O)[C@H](CCC(=O)O)NC(=O)[C@H](CCC(=O)O)NC(=O)[C@@H](NC(=O)[C@H](CCCCN)NC(=O)[C@H](CCCCN)NC(=O)[C@H](CC(=O)O)NC(=O)[C@H](Cc1c[nH]c2ccccc12)NC(=O)[C@H](CCC(=O)O)NC(=O)[C@H](CCC(=O)O)NC(=O)[C@H](Cc1c[nH]c2ccccc12)NC(=O)[C@@H](NC(=O)[C@H](CCSC)NC(C)=O)[C@@H](C)O)[C@@H](C)CC)[C@@H](C)O)[C@@H](C)CC)C(=O)N[C@@H](CCCCN)C(=O)N[C@@H](CCCCN)C(=O)N[C@@H](CO)C(=O)N[C@@H](CCC(=O)O)C(=O)N[C@@H](CCC(=O)O)C(=O)N[C@@H](CCC(N)=O)C(=O)N[C@@H](CCC(N)=O)C(=O)N[C@@H](CCCCN)C(=O)N[C@@H](CCCCN)C(=O)N[C@@H](CC(N)=O)C(=O)N[C@@H](CCC(=O)O)C(=O)N[C@@H](CCCCN)C(=O)N[C@@H](CCC(=O)O)C(=O)N[C@@H](CC(C)C)C(N)=O [MT-SC33EK]	1.2 ± 0.1 nM
CC[C@H](C)[C@H](NC(=O)[C@H](CC(C)C)NC(=O)[C@H](CCC(=O)O)NC(=O)[C@H](CCC(=O)O)NC(=O)[C@@H](NC(=O)[C@H](CCCCN)NC(=O)[C@H](CCCCN)NC(=O)[C@@H](NC(=O)[C@H](Cc1ccc(O)cc1)NC(=O)[C@H](CCC(=O)O)NC(=O)[C@H](CCC(=O)O)NC(=O)[C@@H](NC(=O)[C@H](CCCCN)NC(=O)[C@H](CCCCN)NC(=O)[C@H](CC(=O)O)NC(=O)[C@H](Cc1c[nH]c2ccccc12)NC(=O)[C@H](CCC(=O)O)NC(=O)[C@H](CCC(=O)O)NC(=O)[C@H](Cc1c[nH]c2ccccc12)NC(=O)[C@@H](NC(=O)[C@H](CCSC)NC(C)=O)[C@@H](C)O)[C@@H](C)CC)[C@@H](C)O)[C@@H](C)CC)C(=O)N[C@@H](CCCCN)C(=O)N[C@@H](CCCCN)C(=O)N[C@@H](CO)C(=O)N[C@@H](CCC(=O)O)C(=O)N[C@@H](CCC(=O)O)C(=O)N[C@@H](CCC(N)=O)C(=O)N[C@@H](CCC(N)=O)C(=O)N[C@@H](CCCCN)C(=O)N[C@@H](CCCCN)C(=O)N[C@@H](CC(N)=O)C(=O)N[C@@H](CCC(=O)O)C(=O)N[C@@H](CCCCN)C(=O)N[C@@H](CCC(=O)O)C(=O)N[C@@H](CC(C)C)C(=O)N[C@@H](CCCCN)C(N)=O [MT-SC34EK]	1 ± 0.2 nM
CC[C@H](C)[C@H](NC(=O)[C@H](CC(C)C)NC(=O)[C@H](CCC(=O)O)NC(=O)[C@H](CCC(=O)O)NC(=O)[C@@H](NC(=O)[C@H](CCCCN)NC(=O)[C@H](CCCCN)NC(=O)[C@@H](NC(=O)[C@H](Cc1ccc(O)cc1)NC(=O)[C@H](CCC(=O)O)NC(=O)[C@H](CCC(=O)O)NC(=O)[C@@H](NC(=O)[C@H](CCCCN)NC(=O)[C@H](CCCNC(=N)N)NC(=O)[C@H](CC(=O)O)NC(=O)[C@H](Cc1c[nH]c2ccccc12)NC(=O)[C@H](CCC(=O)O)NC(=O)[C@H](CCC(=O)O)NC(=O)[C@H](Cc1c[nH]c2ccccc12)NC(=O)[C@@H](NC(=O)[C@H](CCSC)NC(C)=O)[C@@H](C)O)[C@@H](C)CC)[C@@H](C)O)[C@@H](C)CC)C(=O)N[C@@H](CCCCN)C(=O)N[C@@H](CCCCN)C(=O)N[C@@H](CO)C(=O)N[C@@H](CCC(N)=O)C(=O)N[C@@H](CC(N)=O)C(=O)N[C@@H](CCC(N)=O)C(=O)N[C@@H](CCC(N)=O)C(=O)N[C@@H](CCC(=O)O)C(=O)N[C@@H](CCCCN)C(=O)N[C@@H](CC(N)=O)C(N)=O [MT-WQ-EKN]	1.1 ± 0.1 nM
CC[C@H](C)[C@H](NC(=O)[C@H](CCC(N)=O)NC(=O)[C@H](CCC(N)=O)NC(=O)[C@H](CC(N)=O)NC(=O)[C@H](CCC(N)=O)NC(=O)[C@H](CO)NC(=O)[C@H](CCCCN)NC(=O)[C@H](CCCCN)NC(=O)[C@@H](NC(=O)[C@H](CC(C)C)NC(=O)[C@H](CCC(=O)O)NC(=O)[C@H](CCC(=O)O)NC(=O)[C@@H](NC(=O)[C@H](CCCCN)NC(=O)[C@H](CCCCN)NC(=O)[C@@H](NC(=O)[C@H](Cc1ccc(O)cc1)NC(=O)[C@H](CCC(=O)O)NC(=O)[C@H](CCC(=O)O)NC(=O)[C@@H](NC(=O)[C@H](CCCCN)NC(=O)[C@H](CCCNC(=N)N)NC(=O)[C@H](CC(=O)O)NC(=O)[C@H](Cc1c[nH]c2ccccc12)NC(=O)[C@H](CCC(=O)O)NC(=O)[C@H](CCC(=O)O)NC(=O)[C@H](Cc1c[nH]c2ccccc12)NC(=O)[C@@H](NC(=O)[C@H](CCSC)NC(C)=O)[C@@H](C)O)[C@@H](C)CC)[C@@H](C)O)[C@@H](C)CC)[C@@H](C)CC)C(=O)N[C@@H](CC(=O)O)C(=O)N[C@@H](CC(C)C)C(N)=O [MT-WQ-IDL, reference compound]	0.9 ± 0.1 nM

same assay, conditions: HIV-1NL4-3(D36G) pseudovirus entry, TZM-bl cells; triplicate, repeated three times, mean ± SD; read-out: Inhibition (IC50, nM) NL4-3 entry

SMILES	IC50
CC[C@H](C)[C@H](NC(=O)[C@H](CCCCN)NC(=O)[C@H](CCCCN)NC(=O)[C@H](CC(=O)O)NC(=O)[C@H](Cc1c[nH]c2ccccc12)NC(=O)[C@H](CCC(=O)O)NC(=O)[C@H](CCC(=O)O)NC(=O)[C@H](Cc1c[nH]c2ccccc12)NC(C)=O)C(=O)N[C@@H](CCC(=O)O)C(=O)N[C@@H](CCC(=O)O)C(=O)N[C@@H](Cc1ccc(O)cc1)C(=O)N[C@H](C(=O)N[C@@H](CCCCN)C(=O)N[C@@H](CCCCN)C(=O)N[C@H](C(=O)N[C@@H](CCC(=O)O)C(=O)N[C@@H](CCC(=O)O)C(=O)N[C@@H](CC(C)C)C(N)=O)[C@@H](C)CC)[C@@H](C)O [SC18EK]	> 2000 nM

— article PMC6669600 (Viruses, 2019)
